Measured values taken from paper PMC3215733.

Key:
[1] = test system: Nc1nc2c(ncn2[C@@H]2O[C@H](COP(=O)(O)OP(=O)(O)O)[C@@H](O)[C@H]2O)c(=O)[nH]1; test: purified protein; conditions: pH 7.5; 37.0 °C
[2] = test system: Nc1ncnc2c1ncn2[C@@H]1O[C@H](COP(=O)(O)OP(=O)(O)OP(=O)(O)O)[C@@H](O)[C@H]1O; test: purified protein; conditions: pH 7.5; 37.0 °C

Substance: (Mycobacterium tuberculosis H37Ra)
- Km [1]: 11.3 ± 0.6 mM
- kcat/Km [1]: 57000 M⁻¹ s⁻¹
- Km [2]: 1.35 ± 0.05 mM
